Measured values as given in publication PMC8949118, “The Transcription Factor SpoVG Is of Major Importance for Biofilm Formation of Staphylococcus epidermidis under In Vitro Conditions, but Dispensable for In Vivo Biofilm Formation”.

Key:
[1] = biological target: T1, HAT-HA-SpoVG (Staphylococcus epidermidis 1457) (UniProt Q8CML1); test: EMSA; conditions: 2-12 uM SpoVG, 2 mM Mg2+; 20 mM HEPES pH 8.0, 10 mM KCl, 2 mM MgCl2, 0.1 mM EDTA, 0.1 mM DTT, 50 ug/mL BSA, 10% glycerol; 200 fmol probe in 20 uL; 30 min room temperature; recombinant protein; protein details: N-terminal HAT-HA-linker; label: DYE682
T1 sequence (looked up, limits assumed): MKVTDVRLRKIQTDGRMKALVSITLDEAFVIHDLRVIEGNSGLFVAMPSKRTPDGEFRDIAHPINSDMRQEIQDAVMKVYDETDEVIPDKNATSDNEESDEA

[2] = biological target: T1, HAT-HA-SpoVG (Staphylococcus epidermidis 1457); test: competition EMSA; conditions: 10x or 20x excess over labeled icaR probe; 20 mM HEPES pH 8.0, 10 mM KCl, 2 mM MgCl2, 0.1 mM EDTA, 0.1 mM DTT, 50 ug/mL BSA, 10% glycerol; 200 fmol probe in 20 uL; 30 min room temperature; recombinant protein; protein details: N-terminal HAT-HA-linker

“GAAACAGTAATATTTGTAATTTTAACTTAATTTTTCTGTAATATATTTTTAGAAAATTGAATAAGGGGGAGATTTTAGAA / TTCTAAAATCTCCCCCTTATTCAATTTTCTAAAAATATATTACAGAAAAATAAGTTAAAATTACAAATATTACTGTTTC [icaR probe]”: binds [1].

“GAAACAGTAATATTTGTAATTTTAACTTAATTTTTCTGTAATATATTTTTAGAAAATTGAATAAGGGGGAGATTTTAGAA / TTCTAAAATCTCCCCCTTATTCAATTTTCTAAAAATATATTACAGAAAAATAAGTTAAAATTACAAATATTACTGTTTC [unlabeled icaR probe]”: binds [2].

The exact form of at least one protein or probe is not confirmed. Protein sequences can lack the tags named with them.
